# Sequence variants of PSTVd loop 15 after infection

The measurements come from Wu et al. 2024 (doi:10.1371/journal.ppat.1012142).

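A pool of all variants was put on leaves of three Nicotiana benthamiana plants. Samples came from the inoculated region at 5 days, the leaf margin at 10 and upper systemic leaves at 12.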

Region: loop 15 of PSTVd (intermediate strain), upper and lower strand joined, each 5' to 3', the first 7 letters being the upper strand, closing pairs included. Wild type: GGAAACCGCUACUAC. Varied positions (N): GGAAACCGNNNNNNC.

Numbers give reads per thousand; 0 = not seen among the reads, higher = more abundant.
Each site shows the three plants.
"Pool" is the share in the plasmid pool used as inoculum, on the same scale.
The inoculated region was read from the minus strand, the other sites from the plus strand.

sequence,pool,inoculated region,leaf margin,systemic leaves
GGAAACCGAAACCUC,0.336,0.0491 / 0.0803 / 0.152,0 / 0 / 0.0401,0.0161 / 0 / 0
GGAAACCGAAGGUAC,0.336,0.278 / 0.273 / 0.305,0.0970 / 0.0891 / 0.120,0 / 0.0605 / 0.182
GGAAACCGAAUGGCC,0.256,0.0655 / 0.112 / 0.190,0.0162 / 0 / 0,0 / 0 / 0
GGAAACCGACCAUAC,0.112,0.262 / 0.369 / 0.343,0.0647 / 0.0668 / 0.140,0.0483 / 0.0605 / 0.0912
GGAAACCGACCAUGC,0.112,0.0491 / 0.112 / 0.0190,0 / 0.0445 / 0,0.0161 / 0 / 0.0228
GGAAACCGACCGCGC,0.224,0.0819 / 0.0482 / 0.0762,0.0162 / 0.0223 / 0,0 / 0 / 0
GGAAACCGACGCUCC,0.272,0.0491 / 0.0643 / 0.114,0 / 0 / 0.0200,0 / 0 / 0
GGAAACCGACGUAGC,0.240,0.115 / 0.0964 / 0.0762,0 / 0 / 0,0 / 0 / 0
GGAAACCGAGCUAUC,0.272,0.0819 / 0.0964 / 0.0762,0 / 0.0223 / 0.0401,0 / 0 / 0
GGAAACCGAGUCACC,0.256,0.0491 / 0.0964 / 0.0381,0.0162 / 0 / 0,0.0161 / 0 / 0
GGAAACCGAGUGUGC,0.208,0.0819 / 0.0803 / 0.0381,0 / 0 / 0,0.0161 / 0 / 0
GGAAACCGAUACCGC,0.272,0.0983 / 0.0482 / 0.114,0.0323 / 0 / 0,0 / 0 / 0
GGAAACCGAUAGACC,0.240,0.246 / 0.369 / 0.495,0.113 / 0.0668 / 0.120,0.0161 / 0 / 0
GGAAACCGAUCAGAC,0.240,0.0819 / 0.145 / 0.133,0.0162 / 0 / 0.0200,0 / 0 / 0
GGAAACCGAUGAGGC,0.288,0.0164 / 0.0803 / 0.171,0 / 0 / 0.0200,0 / 0 / 0
GGAAACCGCACAAUC,0.256,0.0983 / 0.112 / 0.0952,0 / 0 / 0.0200,0 / 0 / 0
GGAAACCGCAGUUCC,0.176,0.115 / 0.161 / 0.133,0.0162 / 0 / 0.0801,0 / 0 / 0
GGAAACCGCAUCGUC,0.176,0.0328 / 0.112 / 0.0762,0 / 0 / 0.0200,0 / 0 / 0
GGAAACCGCAUGAGC,0.304,0.0983 / 0.0803 / 0.114,0.0162 / 0 / 0,0 / 0 / 0
GGAAACCGCCAAAGC,0.112,0.164 / 0.129 / 0.133,0.0162 / 0 / 0.0200,0 / 0 / 0
GGAAACCGCCAGCAC,0.144,0.409 / 0.241 / 0.305,0.0808 / 0.0445 / 0.140,0 / 0.121 / 0.114
GGAAACCGCCAGGUC,0.240,0.557 / 0.562 / 0.476,0.113 / 0.0668 / 0.120,0.0805 / 0.0454 / 0.114
GGAAACCGCCCCGAC,0.288,0.344 / 0.225 / 0.190,0 / 0 / 0.0200,0.0161 / 0 / 0
GGAAACCGCCCUCAC,0.176,0.164 / 0.0482 / 0.190,0 / 0 / 0,0 / 0 / 0
GGAAACCGCCGAACC,0.272,0.0983 / 0.0482 / 0.0190,0 / 0 / 0.0200,0 / 0 / 0
GGAAACCGCGGACUC,0.288,0.0819 / 0.0964 / 0.133,0 / 0 / 0.0200,0 / 0 / 0
GGAAACCGCGUCGAC,0.224,0.0655 / 0.0803 / 0.0762,0 / 0 / 0.0200,0 / 0 / 0
GGAAACCGCUCUUUC,0.112,0.426 / 0.353 / 0.476,0.0970 / 0.0223 / 0.120,0.0161 / 0 / 0
GGAAACCGCUGACUC,0.144,0.0655 / 0.0482 / 0.0762,0 / 0 / 0.0200,0 / 0 / 0
GGAAACCGCUGUUGC,0.304,0.0328 / 0.0321 / 0.114,0 / 0.0223 / 0.0401,0 / 0 / 0
GGAAACCGGACAAUC,0.240,0.0655 / 0.112 / 0.152,0.0162 / 0 / 0.0200,0 / 0 / 0.0228
GGAAACCGGAGUAUC,0.192,0.0983 / 0.0803 / 0.114,0.0323 / 0 / 0,0 / 0 / 0
GGAAACCGGAUAACC,0.272,0.131 / 0.0161 / 0.114,0 / 0 / 0.0200,0 / 0 / 0
GGAAACCGGAUACGC,0.224,0.115 / 0.0643 / 0.114,0 / 0.0223 / 0.0601,0 / 0 / 0
GGAAACCGGCAAGAC,0.192,0.131 / 0.112 / 0.0762,0 / 0 / 0.0401,0.0161 / 0 / 0
GGAAACCGGCCCAUC,0.240,0.115 / 0.112 / 0.152,0.0162 / 0 / 0,0 / 0 / 0
GGAAACCGGCGAUCC,0.304,0.147 / 0.0321 / 0.152,0 / 0 / 0,0.0161 / 0 / 0
GGAAACCGGCUAUUC,0.0960,0.0491 / 0.129 / 0.0952,0 / 0 / 0,0 / 0 / 0
GGAAACCGGCUGCGC,0.256,0.0328 / 0.0643 / 0.0381,0.0162 / 0.0223 / 0.0200,0 / 0 / 0
GGAAACCGGCUGUCC,0.208,0.115 / 0.0482 / 0.114,0.0162 / 2.05 / 0,0.0161 / 0 / 0
GGAAACCGGCUUUCC,0.160,0.0819 / 0.0803 / 0.0952,0 / 0 / 0.0200,0 / 0 / 0
GGAAACCGGGACGCC,0.144,0.0819 / 0.0643 / 0.114,0.0162 / 0 / 0.0200,0.0161 / 0 / 0
GGAAACCGGGCAACC,0.256,0.0983 / 0.0803 / 0.0571,0.0162 / 0 / 0,0 / 0 / 0
GGAAACCGGGGCCCC,0.208,0.0655 / 0.0643 / 0.133,0.0162 / 0 / 0.0401,0 / 0 / 0
GGAAACCGGGUCUCC,0.304,0.180 / 0.0803 / 0.133,0 / 0 / 0.0200,0 / 0 / 0
GGAAACCGGUAGUGC,0.208,0.295 / 0.402 / 0.343,0.162 / 0.0891 / 0.100,0.0644 / 0.0908 / 0.0684
GGAAACCGGUCAGCC,0.288,0.0164 / 0.0964 / 0.0762,0 / 0.0223 / 0.0401,0 / 0 / 0
GGAAACCGGUCGAAC,0.272,0.393 / 0.193 / 0.381,0.0970 / 0.156 / 0.160,0.0161 / 0 / 0
GGAAACCGUACGAUC,0.176,0.197 / 0.289 / 0.0952,0 / 0 / 0.0601,0 / 0 / 0
GGAAACCGUAGAGCC,0.192,0.131 / 0.0161 / 0.0381,0 / 0 / 0,0 / 0 / 0
GGAAACCGUAGUUCC,0.144,0.0983 / 0.0964 / 0.0381,0 / 0 / 0,0 / 0 / 0
GGAAACCGUAUAUCC,0.240,0.0328 / 0.0803 / 0.0190,0.0162 / 0 / 0.0601,0 / 0 / 0
GGAAACCGUAUGAUC,0.256,0.262 / 0.257 / 0.228,0 / 0 / 0.0200,0 / 0 / 0
GGAAACCGUCCUUAC,0.336,0.524 / 0.386 / 0.343,0.162 / 0.0891 / 0.0601,0.0483 / 0.0454 / 0.0684
GGAAACCGUCGGGGC,0.160,0.0655 / 0.161 / 0.133,0 / 0.0223 / 0.0401,0 / 0 / 0
GGAAACCGUCGUUAC,0.192,0.344 / 0.209 / 0.457,0.0970 / 0.0668 / 0.240,0.0483 / 0 / 0
GGAAACCGUGAAGGC,0.224,0.0819 / 0.112 / 0.0571,0 / 0 / 0.0200,0 / 0 / 0
GGAAACCGUGGGUCC,0.208,0.131 / 0.0803 / 0.0952,0.0162 / 0 / 0.0401,0 / 0 / 0
GGAAACCGUGGUCUC,0.112,0.0491 / 0.0964 / 0.0762,0 / 0 / 0.0401,0 / 0 / 0
GGAAACCGUGUGUCC,0.224,0.0819 / 0.112 / 0.0571,0.0162 / 0.0223 / 0.0401,0 / 0 / 0
GGAAACCGUUGGUUC,0.256,0.229 / 0.337 / 0.286,0.0647 / 0.111 / 0.120,0.0322 / 0.0908 / 0.0228
GGAAACCGUUGUUGC,0.160,0.131 / 0.0803 / 0.0381,0 / 0 / 0,0 / 0 / 0
GGAAACCGUUUAAGC,0.384,0.0819 / 0.145 / 0.0381,0.0323 / 0.0223 / 0.0200,0 / 0 / 0
GGAAACCGUUUCCUC,0.288,0.0819 / 0.0482 / 0.114,0.0162 / 0.0223 / 0,0 / 0 / 0

The first 8 entries again:

sequence	pool	inoculated region	leaf margin	systemic leaves
GGAAACCGAAACCUC	0.336	0.0491 / 0.0803 / 0.152	0 / 0 / 0.0401	0.0161 / 0 / 0
GGAAACCGAAGGUAC	0.336	0.278 / 0.273 / 0.305	0.0970 / 0.0891 / 0.120	0 / 0.0605 / 0.182
GGAAACCGAAUGGCC	0.256	0.0655 / 0.112 / 0.190	0.0162 / 0 / 0	0 / 0 / 0
GGAAACCGACCAUAC	0.112	0.262 / 0.369 / 0.343	0.0647 / 0.0668 / 0.140	0.0483 / 0.0605 / 0.0912
GGAAACCGACCAUGC	0.112	0.0491 / 0.112 / 0.0190	0 / 0.0445 / 0	0.0161 / 0 / 0.0228
GGAAACCGACCGCGC	0.224	0.0819 / 0.0482 / 0.0762	0.0162 / 0.0223 / 0	0 / 0 / 0
GGAAACCGACGCUCC	0.272	0.0491 / 0.0643 / 0.114	0 / 0 / 0.0200	0 / 0 / 0
GGAAACCGACGUAGC	0.240	0.115 / 0.0964 / 0.0762	0 / 0 / 0	0 / 0 / 0

For reference, wild type rose from 33.9 per thousand in the pool to 202, 200, 159 (inoculated region), 724, 746, 710 (leaf margin) and 856, 883, 880 (systemic leaves).
With 43,870-66,106 reads a sample, very low values are single reads.
The authors trace changes outside the varied positions to PCR and sequencing errors or to mutation in the plant; presence does not show that a variant is infectious alone.